Anti-infective test results gathered from many reports (values: NIAID ChemDB through PubChem).

Common to all: host cell toxicity; read-out: CC50

Blank or dashed fields: not listed here. CCn is the concentration with n% toxicity to the cells. Conditions beyond the fields shown may differ between rows.

smiles,method,cell line,result
CCCc1c(Cc2cccc3ccccc23)n(COCc2ccccc2)c(=O)[nH]c1=O,,CEM,20.7 µM
O=C(c1ccc(N2CCCC2)cc1)C1CC1c1ccc(Cl)cc1,,C1008 (Vero cells),235 µg/mL
C[C@]1(Cn2cc(COc3ccc(Br)cc3)nn2)Cn2cc([N+](=O)[O-])nc2O1,MTT,J774,>40 µg/mL
COc1cccc2ccc(-c3nnc(-c4ccco4)o3)nc12,MTT,TZM-bl,36.18 µM
CC(=O)N[C@@H](Cc1ccccc1)C(=O)Oc1cc(Cl)ccc1C(=O)Nc1ccc(Cl)c(Cl)c1,MTT,Human PBMCs,44 µM
Nc1ccc(-c2nc3ccc(-c4ccc5nc(-c6ccc(N)cc6)[nH]c5c4)cc3[nH]2)cc1,sulforhodamine,WI38 human lung fibroblasts,2.46 µg/mL
COc1cccc(-c2ccc(C(=O)N(Cc3cccc(OCCCCCC(=O)OC(=O)O)c3)C(C)C)cc2)c1,,HEK 293,>20 µM
C[C@]1(Cn2cc(-c3ccc(OC(F)(F)F)cc3)nn2)Cn2cc([N+](=O)[O-])nc2O1,MTT,J774,>40 µg/mL
Nc1c(-c2nc3ccccc3[nH]2)cc(-c2ccccc2)n1-c1ccc(Br)cc1,sulforhodamine,MCF-7 breast cancer cells,2.12 µg/mL
CC(=O)Nc1nc2c(CC(O)CO)ncn2c(=O)[nH]1,,PRK,200 µg/mL
Cc1cc(-c2cn(C[C@@]3(C)Cn4cc([N+](=O)[O-])nc4O3)nn2)ccc1F,MTT,J774,>40 µg/mL
C=C(C)[C@@H]1CCC2(C(=O)OC)CC[C@]3(C)C(CCC4[C@@](C)(CC#N)C(C(C)(C)C(=O)Nc5nccs5)CC[C@]43C)C12,MTT,RD TE32,>100 µM
COC(=O)[C@H](C)NP(=O)(OC[C@H]1C/C1=C/n1cnc2c(N)nc(N)nc21)Oc1ccccc1,,MEF,211 µM
C=Cc1cn([C@@H]2O[C@H](CO)[C@@H](O)[C@@H]2F)c(=O)[nH]c1=O,,Human lymphoblasts,100 µM
Nc1nc2c(ncn2COCCP(=O)(N2CCOCC2)N2CCOCC2)c(=O)[nH]1,trypan blue,VERO E6,>2000 µM
CCc1c(Cc2ccc3ccccc3c2)n(COC)c(=O)[nH]c1=O,,CEM,92.9 µM
O=c1nc2c(nc3ccccc13)N(Cc1nc3ccccc3[nH]1)c1ccccc1N2,sulforhodamine,MCF-7 breast cancer cells,1.66 µg/mL
CSc1nsc(-c2cccs2)c1C#N,,L929,6 µM
CCOCn1c(Cc2cccc3ccccc23)c(C(C)C)c(=O)[nH]c1=O,,CEM,32.1 µM
CNC(=O)/C=C(\c1ccccc1)c1ccc2nc(N)c(-c3ccccc3)n2c1,,H-HELA,5.03 µg/mL
CC(C)N(Cc1ccccc1)C(=O)c1ccc(-c2ccc3c(c2)OCO3)cc1,,RAJI,<13.5 µM
CN(C(=O)[C@H](Cc1ccccc1)NC(=O)CC1NC(=O)NC1=O)c1cccc(Cl)c1,XTT,TZM-gfp,>50 µM
O=c1[nH]c(=O)n([C@@H]2O[C@H](CO)[C@@H](O)[C@@H]2F)cc1/C=C/I,,Human lymphoblasts,100 µM
COC1=NC=C[C@@H]2O[C@@H]3SC(OC)=NC=C[C@@H]3O[C@@H]2S1,sulforhodamine,EL-4,65 µg/mL
COc1ccc2c(c1)c(/C=C(\C)C(=O)Nc1ccc(C(C)(C)C)cc1)cn2CCN(C)C,MTT,Huh7.5,>100 µM
CN(C(=O)[C@H](Cc1ccccc1)NC(=O)CC1NC(=O)NC1=O)c1ccc(Cl)cc1,XTT,TZM-gfp,>50 µM
COC(=O)c1cccc2oc(-c3cccc4oc(-c5ccccc5O)nc34)nc12,sulforhodamine,MCF-7 breast cancer cells,1.28 µM
CC(=O)Nc1nc2c(CC(O)CO)nc(C)n2c(=O)[nH]1,,WI-38,>400 µg/mL
CN(C)c1ccc(/C=C/C(=O)c2c(O)cc(/C=C/c3ccc(N(C)C)cc3)oc2=O)cc1,MTT,HCT116,>10 µM
Nc1ncnc2c1ncn2[C@H]1C[C@]12C[C@H]2CO,,BSC-1,>100 µM
Nc1c(-c2nc3ccccc3[nH]2)cc(-c2ccccc2)n1-c1ccc(Cl)cc1,sulforhodamine,MCF-7 breast cancer cells,0.934 µg/mL
CNC(=O)/C=C(\c1ccccc1)c1ccc2nc(N)c(-c3ccc(F)cc3C(F)(F)F)n2c1,,H-HELA,>10 µg/mL
CC(C)=CCC/C(C)=C/[C@H]1C(=O)C(C)=C[C@H]1O,,HOG.R5,74.8 µM
CSc1nsc(-c2ccc(O)cc2)c1C#N,,L929,2 µM
CCCCCOC(=O)Nc1ncnn2c([C@@H]3O[C@H](CO)[C@@H](O)[C@@]3(C)O)ccc12,MTS,Caco2,>100 µM
CSc1nsc(-c2cccnc2)c1C#N,,L929,20 µM
COc1cccc2ccc(-c3nnc(-c4ccc(F)cc4)o3)nc12,MTT,TZM-bl,236 µM
Cc1ccc(OCc2cn(C[C@@]3(C)Cn4cc([N+](=O)[O-])nc4O3)nn2)cc1,MTT,J774,>40 µg/mL
C=CCc1nc(C)n2c(=O)[nH]c(=S)[nH]c12,,PRK,40 µg/mL
CC1=C[C@H](O)[C@@H](/C=C(/C)C/C=C/C(C)(C)O)C1=O,,HOG.R5,49.6 µM
CN(C)c1ccc(/C=C/C(=O)c2c(OB(F)F)cc(/C=C/c3ccc(N(C)C)cc3)oc2=O)cc1,MTT,HCT116,>10 µM
Nc1nc(NC2CC2)c2ncn(C=C3CC3CO)c2n1,,MEF,220 µM
COc1ccc(NC(=O)/C=C/c2ccc3cccc(OC)c3n2)cc1,MTT,TZM-bl,11.48 µM
Nc1c(-c2nc3ccccc3[nH]2)cc(-c2ccccc2)n1-c1ccccn1,sulforhodamine,MCF-7 breast cancer cells,0.934 µg/mL
C=CCSc1n[nH]c(-c2ccco2)n1,,Panc-1,>100 µg/mL
Cc1cn(CC(=O)N[C@@H](Cc2ccccc2)C(=O)N(C)c2cccc(F)c2)c(=O)[nH]c1=O,XTT,TZM-gfp,>50 µM
CCCCCCCCCCCCCCCCNc1ccc(C(=O)C2CC2c2ccc(Cl)cc2)cc1,,C1008 (Vero cells),235 µg/mL
COc1cc2c(cc1OC)C(CC1(C)OCCO1)=NCC2,,HepG2,>20 µM
Cc1cn([C@H]2S[C@@H](CO)[C@H](O)[C@H]2O)c(=O)[nH]c1=O,,HSB-2,>100 µg/mL
C=CCn1c(CN2c3ccccc3Nc3nc(=O)c4ccccc4nc32)nc2ccccc21,sulforhodamine,MCF-7 breast cancer cells,0.667 µg/mL
COc1ccc(C(O)C(Br)N=[N+]=[N-])cc1OC,,HepG2,<13.5 µM
CCCCCCCC/C=C\CCCCCCCCNc1ccc(C(=O)C2CC2c2ccc(Cl)cc2)cc1,,C1008 (Vero cells),431 µg/mL
COc1ccc(-c2nnc(-c3ccc4cccc(OC)c4n3)o2)cc1,MTT,TZM-bl,413 µM
Cc1ccc(N(C)C(=O)[C@H](Cc2ccccc2)NC(=O)Cn2cc(C)c(=O)[nH]c2=O)cc1,XTT,TZM-gfp,>50 µM
C=CCSc1n[nH]c(-c2cccc([N+](=O)[O-])c2C)n1,,THP-1,>100 µg/mL
CN(C(=O)[C@H](Cc1ccccc1)NC(=O)CNC(=O)c1ccccc1)c1cccc(F)c1,XTT,TZM-gfp,>50 µM
CCNc1cn([C@H]2C[C@H](O)[C@@H](CO)O2)c(=O)[nH]c1=O,,GMK,>400 µg/mL
CC(C)N(Cc1cccc(OCCCCCC(=O)OC(=O)O)c1)C(=O)c1ccc(-c2cccc(N(C)C)c2)cc1,,RAJI,>20 µM
O=C(c1ccc(NCCO)cc1)C1CC1c1ccc(Cl)cc1,,C1008 (Vero cells),235 µg/mL
O=C1C(=O)c2ccccc2C(O)=C1c1ccccc1,MTT,HEK293T,54.6 µM
C/C(=C\c1cn(CCN2CCOCC2)c2ccccc12)C(=O)Nc1ccc(C(C)(C)C)cc1,MTT,Huh7.5,19.7 µM
CCCCCCCCOC(=O)Nc1ncnn2c([C@@H]3O[C@H](CO)[C@@H](O)[C@@]3(C)O)ccc12,MTS,Caco2,27 µM
CN(C(=O)[C@H](Cc1ccccc1)NC(=O)CNC(=O)c1ccccc1)c1ccc(F)cc1,XTT,TZM-gfp,>50 µM
CCc1cn([C@@H]2O[C@H](CO)[C@@H](O)[C@@H]2F)c(=O)[nH]c1=O,,Human lymphoblasts,100 µM
CSc1nsc(-c2ccc[n+](C)c2)c1C#N,,HEP-2,1250 µM
COc1cccc2c1c(/C=C(\C)C(=O)Nc1ccc(C(C)(C)C)cc1)cn2C(=O)OCc1ccccc1,MTT,Huh7.5,>100 µM
CSc1nsc(-c2ccc3ccccc3c2)c1C#N,,L929,20 µM
CCc1c(Cc2ccc3ccccc3c2)n(COCCO)c(=O)[nH]c1=O,,CEM,121 µM
CNC(=O)/C=C(\c1ccccc1)c1ccc2nc(N)c(-c3ccc(F)c(F)c3F)n2c1,,H-HELA,6.98 µg/mL
CCCCCCCNc1ccc(C(=O)C2CC2c2ccc(OC)c(OC)c2)cc1,,C1008 (Vero cells),235 µg/mL
CCCCCOC(=O)Nc1ncnn2c([C@@H]3O[C@H](CO[P@@](=O)(N[C@@H](C)C(=O)OC(C)C)Oc4ccccc4)[C@@H](O)[C@@]3(C)O)ccc12,MTS,Caco2,20 µM
CCCN(Cc1ccc(OCC(=O)OCC)cc1)C(=O)c1ccc(-c2ccc3c(c2)OCO3)cc1,,HEK 293,>20 µM
O=C(Nc1ccc(C(F)(F)F)cc1)c1cc(Cl)ccc1O,tetrazolium,HepG2 cells,0.36 µM
C/C(=C\c1cn(CCN2CCOCC2)c2ccc(C#N)cc12)C(=O)Nc1ccc(C(C)(C)C)cc1,MTT,Huh7.5,>100 µM
O=C(Oc1cc(Cl)ccc1C(=O)Nc1cccc(C(F)(F)F)c1)c1cnccn1,tetrazolium,HepG2 cells,6.28 µM
C#CCSc1n[nH]c(-c2ccc([N+](=O)[O-])c(C)c2)n1,,THP-1,>100 µg/mL
CN(C(=O)[C@H](Cc1ccccc1)NC(=O)CNC(=O)c1ccccc1)c1cccc(C(F)(F)F)c1,XTT,TZM-gfp,>50 µM
CC(=O)n1cc(/C=C(\C)C(=O)Nc2ccc(C(C)(C)C)cc2)c2cc(C#N)ccc21,MTT,Huh7.5,40.74 µM
O=C(c1ccc(N2CCOCC2)cc1)C1CC1c1ccc(Cl)cc1,,C1008 (Vero cells),235 µg/mL
COc1cc(-c2nnc(-c3ccc4cccc(OC)c4n3)o2)cc(OC)c1OC,MTT,TZM-bl,65.58 µM
CCOC(=O)CCCCCOc1cccc(CN(C(=O)c2ccc(-c3cccc(S(C)(=O)=O)c3)cc2)C(C)C)c1,,BJ,>20 µM
O=C(NCc1c(F)cc(F)cc1F)c1cn2c(c(O)c1=O)C(=O)N1[C@H]3CC[C@H](C3)O[C@@H]1C2,luminescence,MAGIC-5A,>10 µM
Cc1cn(CC(=O)N[C@@H](Cc2ccccc2)C(=O)N(C)c2cccc(C(F)(F)F)c2)c(=O)[nH]c1=O,XTT,TZM-gfp,>50 µM

The first 5 rows once more:

smiles | method | cell line | result
CCCc1c(Cc2cccc3ccccc23)n(COCc2ccccc2)c(=O)[nH]c1=O |  | CEM | 20.7 µM
O=C(c1ccc(N2CCCC2)cc1)C1CC1c1ccc(Cl)cc1 |  | C1008 (Vero cells) | 235 µg/mL
C[C@]1(Cn2cc(COc3ccc(Br)cc3)nn2)Cn2cc([N+](=O)[O-])nc2O1 | MTT | J774 | >40 µg/mL
COc1cccc2ccc(-c3nnc(-c4ccco4)o3)nc12 | MTT | TZM-bl | 36.18 µM
CC(=O)N[C@@H](Cc1ccccc1)C(=O)Oc1cc(Cl)ccc1C(=O)Nc1ccc(Cl)c(Cl)c1 | MTT | Human PBMCs | 44 µM